Reference: patent US20230212210A1 (priority 2020, published 2023)

Target: S1 protein (or the S1 subunit) of SARS-CoV-2 (Severe acute respiratory syndrome coronavirus 2, UniProt P0DTC2)
Assay type: binding
Details: for affinity with the S1 protein (in words): judged from the Kd data in Table 7; for Kd: microscale thermophoresis, RED-NHS labelled S1 protein, read-out: Dissociation constants (Kd) of the binding of the S1 protein to various sugar chains

Row | Substance | affinity with the S1 protein (in words) | Kd [µM]
1 | sodium heparin sulfate [reference compound] | relatively strong | 1.25
2 | sodium chondroitin sulfate | relatively weak | 19
3 | Fucα1-2Galβ1-4Glc [HMO3] | relatively weak | 71
